# Experimental data reported in PMC8351594, “Design of Novel Amphipathic α-Helical Antimicrobial Peptides with No Toxicity as Therapeutics against the Antibiotic-Resistant Gram-Negative Bacterial Pathogen, Acinetobacter Baumannii” (Journal of medicinal chemistry and drug design, 2019).
# Tested on: Acinetobacter baumannii (seven strains) versus human red blood cells
# Details: HC50 (μM) human red blood cells 18 h 37°C / MICGM (μM) seven A. baumannii strains
row,SMILES,"T.I. (therapeutic index, HC50/MICGM)"
1,CC(=O)N[C@H](CCCCN)C(=O)N[C@H](CC(C)C)C(=O)N[C@H](CCCCN)C(=O)N[C@H](CO)C(=O)N[C@H](CC(C)C)C(=O)N[C@H](CC(C)C)C(=O)N[C@H](CCCCN)C(=O)N[C@@H](C(=O)N[C@H](CC(C)C)C(=O)N[C@H](CO)C(=O)N[C@H](CCCCN)C(=O)N[C@H](C)C(=O)N[C@H](CCCCN)C(=O)N[C@H](C)C(=O)N[C@H](C)C(=O)N[C@H](CCCCN)C(=O)N[C@H](CC(C)C)C(=O)N[C@H](CCCCN)C(=O)N[C@@H](C(=O)N[C@H](CC(C)C)C(=O)N[C@H](CC(C)C)C(=O)N[C@H](CCCCN)C(=O)N[C@H](C)C(=O)N[C@H](CC(C)C)C(=O)N[C@H](CO)C(=O)N[C@H](CCCCN)C(N)=O)[C@H](C)O)[C@H](C)O [D84(Lys^1-6 Lys-1)] (Ac-[dK][dL][dK][dS][dL][dL][dK][dT][dL][dS][dK][dA][dK][dA][dA][dK][dL][dK][dT][dL][dL][dK][dA][dL][dS][dK]-NH2),108.6
2,CC(=O)N[C@H](CCCCN)C(=O)N[C@H](CC(C)C)C(=O)N[C@@H](CCN)C(=O)N[C@H](CO)C(=O)N[C@H](CC(C)C)C(=O)N[C@H](CC(C)C)C(=O)N[C@@H](CCN)C(=O)N[C@@H](C(=O)N[C@H](CC(C)C)C(=O)N[C@H](CO)C(=O)N[C@@H](CCN)C(=O)N[C@H](C)C(=O)N[C@H](CCCCN)C(=O)N[C@H](C)C(=O)N[C@H](C)C(=O)N[C@H](CCCCN)C(=O)N[C@H](CC(C)C)C(=O)N[C@@H](CCN)C(=O)N[C@@H](C(=O)N[C@H](CC(C)C)C(=O)N[C@H](CC(C)C)C(=O)N[C@@H](CCN)C(=O)N[C@H](C)C(=O)N[C@H](CC(C)C)C(=O)N[C@H](CO)C(=O)N[C@@H](CCN)C(N)=O)[C@H](C)O)[C@H](C)O [D86(Lys^1-6 Dab-1)] (Ac-[dK][dL][Dab][dS][dL][dL][Dab][dT][dL][dS][Dab][dA][dK][dA][dA][dK][dL][Dab][dT][dL][dL][Dab][dA][dL][dS][Dab]-NH2),>824
3,CC(=O)N[C@H](CCCCN)C(=O)N[C@H](CC(C)C)C(=O)N[C@H](CCCCN)C(=O)N[C@H](CO)C(=O)N[C@H](CC(C)C)C(=O)N[C@H](CC(C)C)C(=O)N[C@H](CCCCN)C(=O)N[C@@H](C(=O)N[C@H](CC(C)C)C(=O)N[C@H](CO)C(=O)N[C@H](C)C(=O)N[C@H](C)C(=O)N[C@H](CCCCN)C(=O)N[C@H](CCCCN)C(=O)N[C@H](CCCCN)C(=O)N[C@H](CCCCN)C(=O)N[C@H](CC(C)C)C(=O)N[C@H](C)C(=O)N[C@@H](C(=O)N[C@H](CC(C)C)C(=O)N[C@H](CC(C)C)C(=O)N[C@H](CCCCN)C(=O)N[C@H](C)C(=O)N[C@H](CC(C)C)C(=O)N[C@H](CO)C(=O)N[C@H](CCCCN)C(N)=O)[C@H](C)O)[C@H](C)O [D88(Lys^1-6 Lys-2)] (Ac-[dK][dL][dK][dS][dL][dL][dK][dT][dL][dS][dA][dA][dK][dK][dK][dK][dL][dA][dT][dL][dL][dK][dA][dL][dS][dK]-NH2),201.5
4,CC(=O)N[C@H](CCCCN)C(=O)N[C@H](CC(C)C)C(=O)N[C@@H](CCN)C(=O)N[C@H](CO)C(=O)N[C@H](CC(C)C)C(=O)N[C@H](CC(C)C)C(=O)N[C@@H](CCN)C(=O)N[C@@H](C(=O)N[C@H](CC(C)C)C(=O)N[C@H](CO)C(=O)N[C@H](C)C(=O)N[C@H](C)C(=O)N[C@H](CCCCN)C(=O)N[C@@H](CCN)C(=O)N[C@@H](CCN)C(=O)N[C@H](CCCCN)C(=O)N[C@H](CC(C)C)C(=O)N[C@H](C)C(=O)N[C@@H](C(=O)N[C@H](CC(C)C)C(=O)N[C@H](CC(C)C)C(=O)N[C@@H](CCN)C(=O)N[C@H](C)C(=O)N[C@H](CC(C)C)C(=O)N[C@H](CO)C(=O)N[C@@H](CCN)C(N)=O)[C@H](C)O)[C@H](C)O [D89(Lys^1-6 Dab-2)] (Ac-[dK][dL][Dab][dS][dL][dL][Dab][dT][dL][dS][dA][dA][dK][Dab][Dab][dK][dL][dA][dT][dL][dL][Dab][dA][dL][dS][Dab]-NH2),>1589
5,CC(=O)N[C@H](CCCCN)C(=O)N[C@H](CC(C)C)C(=O)N[C@H](CCCCN)C(=O)N[C@H](CO)C(=O)N[C@H](CC(C)C)C(=O)N[C@H](CC(C)C)C(=O)N[C@H](CCCCN)C(=O)N[C@@H](C(=O)N[C@H](CC(C)C)C(=O)N[C@H](CO)C(=O)N[C@H](CCCCN)C(=O)N[C@H](C)C(=O)N[C@H](CCCCN)C(=O)N[C@H](C)C(=O)N[C@H](C)C(=O)N[C@H](CCCCN)C(=O)N[C@H](CC(C)C)C(=O)N[C@H](CCCCN)C(=O)N[C@@H](C(=O)N[C@H](CC(C)C)C(=O)N[C@H](CC(C)C)C(=O)N[C@H](CCCCN)C(=O)N[C@H](C)C(=O)N[C@H](CC(C)C)C(=O)N[C@H](CO)C(=O)N[C@H](CO)C(N)=O)[C@H](C)O)[C@H](C)O [D101(Lys^1Ser^26-5 Lys-1)] (Ac-[dK][dL][dK][dS][dL][dL][dK][dT][dL][dS][dK][dA][dK][dA][dA][dK][dL][dK][dT][dL][dL][dK][dA][dL][dS][dS]-NH2),129.9
6,CC(=O)N[C@H](CCCCN)C(=O)N[C@H](CC(C)C)C(=O)N[C@@H](CCN)C(=O)N[C@H](CO)C(=O)N[C@H](CC(C)C)C(=O)N[C@H](CC(C)C)C(=O)N[C@@H](CCN)C(=O)N[C@@H](C(=O)N[C@H](CC(C)C)C(=O)N[C@H](CO)C(=O)N[C@@H](CCN)C(=O)N[C@H](C)C(=O)N[C@H](CCCCN)C(=O)N[C@H](C)C(=O)N[C@H](C)C(=O)N[C@H](CCCCN)C(=O)N[C@H](CC(C)C)C(=O)N[C@@H](CCN)C(=O)N[C@@H](C(=O)N[C@H](CC(C)C)C(=O)N[C@H](CC(C)C)C(=O)N[C@@H](CCN)C(=O)N[C@H](C)C(=O)N[C@H](CC(C)C)C(=O)N[C@H](CO)C(=O)N[C@H](CO)C(N)=O)[C@H](C)O)[C@H](C)O [D102(Lys^1Ser^26-5 Dab-1)] (Ac-[dK][dL][Dab][dS][dL][dL][Dab][dT][dL][dS][Dab][dA][dK][dA][dA][dK][dL][Dab][dT][dL][dL][Dab][dA][dL][dS][dS]-NH2),>1012
7,CC(=O)N[C@H](CCCCN)C(=O)N[C@H](CC(C)C)C(=O)N[C@H](CCCCN)C(=O)N[C@H](CO)C(=O)N[C@H](CC(C)C)C(=O)N[C@H](CC(C)C)C(=O)N[C@H](CCCCN)C(=O)N[C@@H](C(=O)N[C@H](CC(C)C)C(=O)N[C@H](CO)C(=O)N[C@H](C)C(=O)N[C@H](C)C(=O)N[C@H](CCCCN)C(=O)N[C@H](CCCCN)C(=O)N[C@H](CCCCN)C(=O)N[C@H](CCCCN)C(=O)N[C@H](CC(C)C)C(=O)N[C@H](C)C(=O)N[C@@H](C(=O)N[C@H](CC(C)C)C(=O)N[C@H](CC(C)C)C(=O)N[C@H](CCCCN)C(=O)N[C@H](C)C(=O)N[C@H](CC(C)C)C(=O)N[C@H](CO)C(=O)N[C@H](CO)C(N)=O)[C@H](C)O)[C@H](C)O [D103(Lys^1Ser^26-5 Lys-2)] (Ac-[dK][dL][dK][dS][dL][dL][dK][dT][dL][dS][dA][dA][dK][dK][dK][dK][dL][dA][dT][dL][dL][dK][dA][dL][dS][dS]-NH2),192.7
8,CC(=O)N[C@H](CCCCN)C(=O)N[C@H](CC(C)C)C(=O)N[C@@H](CCN)C(=O)N[C@H](CO)C(=O)N[C@H](CC(C)C)C(=O)N[C@H](CC(C)C)C(=O)N[C@@H](CCN)C(=O)N[C@@H](C(=O)N[C@H](CC(C)C)C(=O)N[C@H](CO)C(=O)N[C@H](C)C(=O)N[C@H](C)C(=O)N[C@H](CCCCN)C(=O)N[C@@H](CCN)C(=O)N[C@@H](CCN)C(=O)N[C@H](CCCCN)C(=O)N[C@H](CC(C)C)C(=O)N[C@H](C)C(=O)N[C@@H](C(=O)N[C@H](CC(C)C)C(=O)N[C@H](CC(C)C)C(=O)N[C@@H](CCN)C(=O)N[C@H](C)C(=O)N[C@H](CC(C)C)C(=O)N[C@H](CO)C(=O)N[C@H](CO)C(N)=O)[C@H](C)O)[C@H](C)O [D104(Lys^1Ser^26-5 Dab-2)] (Ac-[dK][dL][Dab][dS][dL][dL][Dab][dT][dL][dS][dA][dA][dK][Dab][Dab][dK][dL][dA][dT][dL][dL][Dab][dA][dL][dS][dS]-NH2),>1863
9,CC(=O)N[C@H](CCCCN)C(=O)N[C@H](CC(C)C)C(=O)N[C@@H](CN)C(=O)N[C@H](CO)C(=O)N[C@H](CC(C)C)C(=O)N[C@H](CC(C)C)C(=O)N[C@@H](CN)C(=O)N[C@@H](C(=O)N[C@H](CC(C)C)C(=O)N[C@H](CO)C(=O)N[C@@H](CN)C(=O)N[C@H](C)C(=O)N[C@H](CCCCN)C(=O)N[C@H](C)C(=O)N[C@H](C)C(=O)N[C@H](CCCCN)C(=O)N[C@H](CC(C)C)C(=O)N[C@@H](CN)C(=O)N[C@@H](C(=O)N[C@H](CC(C)C)C(=O)N[C@H](CC(C)C)C(=O)N[C@@H](CN)C(=O)N[C@H](C)C(=O)N[C@H](CC(C)C)C(=O)N[C@H](CO)C(=O)N[C@@H](CN)C(N)=O)[C@H](C)O)[C@H](C)O [D105(Lys^1-6 Dap-1)] (Ac-[dK][dL][Dap][dS][dL][dL][Dap][dT][dL][dS][Dap][dA][dK][dA][dA][dK][dL][Dap][dT][dL][dL][Dap][dA][dL][dS][Dap]-NH2),>957
10,CC(=O)N[C@H](CCCCN)C(=O)N[C@H](CC(C)C)C(=O)N[C@@H](CN)C(=O)N[C@H](CO)C(=O)N[C@H](CC(C)C)C(=O)N[C@H](CC(C)C)C(=O)N[C@@H](CN)C(=O)N[C@@H](C(=O)N[C@H](CC(C)C)C(=O)N[C@H](CO)C(=O)N[C@H](C)C(=O)N[C@H](C)C(=O)N[C@H](CCCCN)C(=O)N[C@@H](CN)C(=O)N[C@@H](CN)C(=O)N[C@H](CCCCN)C(=O)N[C@H](CC(C)C)C(=O)N[C@H](C)C(=O)N[C@@H](C(=O)N[C@H](CC(C)C)C(=O)N[C@H](CC(C)C)C(=O)N[C@@H](CN)C(=O)N[C@H](C)C(=O)N[C@H](CC(C)C)C(=O)N[C@H](CO)C(=O)N[C@@H](CN)C(N)=O)[C@H](C)O)[C@H](C)O [D106(Lys^1-6 Dap-2)] (Ac-[dK][dL][Dap][dS][dL][dL][Dap][dT][dL][dS][dA][dA][dK][Dap][Dap][dK][dL][dA][dT][dL][dL][Dap][dA][dL][dS][Dap]-NH2),425.3

# Square brackets hold non-standard residues; d marks the D form. Peptide text beside a SMILES is read from it. Dab = NCC[C@H](N)C(=O)O; Dap = NC[C@H](N)C(=O)O
